{"source": "paper PMC10467137", "about": "“In Silico–Ex Vitro Iteration Strategy for Affinity Maturation of Anti-Ricin Peptides and the SPR Biosensing Application” (2023)", "molecular_target": "ricin (Ricinus communis, UniProt P02879)", "experiment": "SPR binding affinity and kinetics of peptides to immobilised ricin", "conditions": "SPR Biacore T200, ricin on CM5 chip, peptides in 0.01 M HEPES, 0.15 M NaCl, 0.05% Tween 20, pH 7.4; multi-cycle kinetics, 1:1 binding model"}
{"smiles": "C[C@H](NC(=O)[C@H](CC(N)=O)NC(=O)[C@H](Cc1ccccc1)NC(=O)[C@H](Cc1ccc(O)cc1)NC(=O)[C@H](CO)NC(=O)[C@@H](N)CCC(N)=O)C(=O)N[C@@H](CS)C(=O)N[C@@H](Cc1c[nH]c2ccccc12)C(=O)N[C@@H](CO)C(=O)N[C@@H](CS)C(=O)N[C@@H](CC(N)=O)C(=O)N[C@@H](Cc1c[nH]cn1)C(=O)O", "values": [{"measurement": "ka", "value": 470, "unit": "M⁻¹ s⁻¹"}]}
